Compound potency records, mixed from different reports. Data source: NIAID ChemDB in PubChem.

Shared fields: tests in culture; species: Mycobacterium tuberculosis

An empty or dashed field is not shown. Lines come from different laboratories, so protocols vary. A number after MIC or MFC names an inhibition level or a share of isolates. ECn: concentration that inhibits the pathogen or its effect by n%. MIC bound comes from a single tested concentration. Percent inhibition refers to the dose given; in toxicity tests it is the harm to the cells.

SMILES,method,measure,cell line,mutations,strain,dose,value
CC(C)c1cccc(O)c(=O)c1,BACTEC,MIC bound,,,H37Rv,,≤128 µg/mL
CCCCCCCCCCCCCCCCNCc1ccncc1,,MIC,,,Sensitive strains,,3.12 µg/mL
Fc1ccccc1-c1c(C(c2ccccc2)n2ccnc2)cnn1-c1ccccc1,,MIC90,,,ATCC 27294,,≥100 µM
COc1c(C(=O)/C(=N/Nc2cccc(Cl)c2)C(C)=O)c(O)c(OC)c2occc12,BACTEC,MIC bound,,,H37Rv,,>12.5 µg/mL
CC(CC(=O)NN)Nc1ccc2ccccc2c1,,inhibition,,,H37Rv,10 µg/mL,100%
CCOC(=O)N1CCN(c2ccc3c(-c4ccccc4)cc(=O)[nH]c3n2)CC1,,EC50,,,H37Rv,,>12.5 µg/mL
COc1cc2ccc(Br)cc2cc1[C@@H](c1ccccc1)[C@@](O)(CCN(C)C)c1cccc(Br)c1,resazurin,MIC,,,Clinical isolate,,0.084 µg/mL
N#Cc1cccc(CSc2nc3ccccc3[nH]2)c1,,MIC,,,My 331/88,,>62 µM
CCCCCCCCCCCCNC(CC(=O)OCC)c1cccc(Cl)c1,,MIC,,,Sensitive strains,,25 µg/mL
C[C@H](N)C(=O)N[C@@H](CB1OC2CC3CC(C3(C)C)[C@@]2(C)O1)c1ccccc1,agar,MIC,,,H37Rv,,≤500 µg/mL
CCCCCCCCCCCCCCCCNCc1ccc(F)cc1,,MIC,,,Sensitive strains,,12.5 µg/mL
Clc1ccccc1C(c1ccccc1)(c1ccccc1)n1ccnc1,,MIC90,,,ATCC 35837 (ethambutol-resistant),,≥100 µM
NC(=S)c1ccc(CSc2nc3ccccc3[nH]2)cc1,,MIC,,,My 331/88,,32 µM
COc1c([C@@H](c2ccccc2)[C@@](O)(CCN(C)C)c2cccc3ccccc23)cc2cc(Br)ccc2c1Br,resazurin,MIC,,,Clinical isolate,,0.085 µg/mL
O=C(CN1CCN(c2cc3c(cc2F)c(=O)c(C(=O)O)cn3C2CC2)CC1)c1ccccc1,,MIC,VERO,,H37Rv,,0.78 µg/mL
N#Cc1ccc(CSc2nc3ccccc3[nH]2)cc1,,MIC,,,My 331/88,,>62 µM
Cc1cn2c(C(=O)NCc3ccc(N4CCC(c5ccc(OC(F)(F)F)cc5)CC4)cc3)c(C)nc2s1,resazurin / fluorescence,MIC,,QcrB4 A396T,H37Rv,,<0.024 µM
COc1ccc2c(-c3ccccc3)cc(N3CCNCC3)nc2n1,,EC50,,,H37Rv,,<12.5 µg/mL
Brc1ccc(CSc2nc3ccccc3[nH]2)cc1,,MIC,,,My 331/88,,>125 µM
CCn1cc(C(=O)O)c(=O)c2cc(F)c(N3CCN(C/C(=N/O)c4ccc(C)cc4)CC3)cc21,,EC50,,,H37Rv,,>6.25 µg/mL
Fc1ccccc1-c1c(C(c2ccccc2)n2ccnc2)cnn1-c1ccccc1F,,MIC50,,,ATCC 27294,,47.2 µM
OCCN(CCO)c1ccc2c(-c3ccccc3)cc(N(CCO)CCO)nc2n1,,EC50,,,H37Rv,,>12.5 µg/mL
C=C(C)[C@H]1CC[C@@]2(C)CC[C@@]3(C)[C@@H](CC[C@H]4[C@]5(C)CC[C@@H](OC(=O)c6ccccc6)C(C)(C)[C@H]5CC[C@@]43C)[C@H]12,BACTEC,MIC,,,H37Rv,,≥12.8 µg/mL
NC1=C([N+](=O)[O-])NC2OC[C@@H](OCc3ccc(OC(F)(F)F)cc3)CN12,broth dilution,MIC,,,F420-,,>100 µM
CC(=O)Nc1ccc2c(-c3ccccc3)cc(Cl)nc2n1,,EC50,,,H37Rv,,>12.5 µg/mL
CO[C@H]1/C=C/O[C@@]2(C)Oc3c(C)c(O)c4c(O)c(c(/C=N/N5CCN(C)CC5)c(O)c4c3C2=O)NC(=O)/C(C)=C\C=C\[C@H](C)[C@H](O)[C@@H](C)[C@@H](O)[C@@H](C)[C@H](OC(C)=O)[C@@H]1C,,MIC50,,,ATCC 35837 (ethambutol-resistant),,0.4 µM
CC[C@H]1OC(=O)[C@H](C)[C@@H](O[C@H]2C[C@@](C)(OC)[C@@H](O)[C@H](C)O2)[C@H](C)[C@@H](O[C@@H]2O[C@H](C)C[C@H](N(C)C)[C@H]2O)[C@](C)(OC)C[C@@H](C)C(=O)[C@H](C)[C@@H](O)[C@]1(C)O,,MIC,,,38396,,>4 µg/mL
Cc1cc(OC(=O)Nc2ccc(C)c([N+](=O)[O-])c2)c(Br)cc1Cl,BACTEC,MIC bound,,,H37Rv,,>12.5 µg/mL
CCn1cc(C(=O)O)c(=O)c2cc(F)c(N3CCN(C/C(=N/O)c4ccccc4)CC3)cc21,,inhibition,,,H37Rv,6.25 µg/mL,44%
CO[C@H]1/C=C/O[C@@]2(C)Oc3c(C)c(O)c4c(O)c(c(/C=N/N5CCN(C)CC5)c(O)c4c3C2=O)NC(=O)/C(C)=C\C=C\[C@H](C)[C@H](O)[C@@H](C)[C@@H](O)[C@@H](C)[C@H](OC(C)=O)[C@@H]1C,,MIC99,,526Arg,,,>640 µg/mL
Cc1c(N2CCC(N3CCCCC3)CC2)c([N+](=O)[O-])cc2c(=O)c(C(=O)O)cn(-c3ccc(F)cc3F)c12,,MIC,,,H37Rv,,>23.74 µM
CCCCCCCCNC(CCO)c1cccc(Cl)c1,,MIC,,,Sensitive strains,,12.5 µg/mL
Clc1ccc(CSc2nc3ccccc3[nH]2)cc1Cl,,MIC,,,My 331/88,,>32 µM
O=S1(=O)C[C@H](O)[C@H](O)CS1,BACTEC,MIC bound,,,H37Rv,,>12.5 µg/mL
O=C(O)c1cn(C2CC2)c2cc(N3CCN(C/C(=N/O)c4ccccc4)CC3)c(F)cc2c1=O,,MIC,VERO,,H37Rv,,1.56 µg/mL
COc1cc(N)c2c(c1)SCCC(=O)N2,BACTEC,inhibition,,,H37Rv,12.5 µg/mL,0%
COc1ccc(CSc2nc3ccccc3[nH]2)cc1,,MIC,,,My 331/88,,>215 µM
O=C1c2c(O)cccc2[C@H]([C@@H]2O[C@H](CO)[C@@H](O)[C@H](O)[C@H]2O)c2cc(CO)cc(O)c21,BACTEC,MIC,,,H37Rv,,≥12.5 µg/mL
Oc1ccccc1CNCCCCCCCNCc1ccccc1O,,MIC,,,H37Ra,,<25 µg/mL
COc1cc2ccccc2cc1[C@@H](c1ccc(Cl)cc1)[C@@](O)(CCN(C)C)c1cccc2ccccc12,resazurin,MIC,,,H37Rv,,0.962 µg/mL
Cc1cn2c(C(=O)NCc3ccc(N4CCN(c5ccc(C(F)(F)F)cn5)CC4)c(F)c3)c(C)nc2s1,resazurin / fluorescence,MIC,,QcrB6 A317T,H37Rv,,0.15 µM
Fc1ccc(-c2c(C(c3ccccc3)n3ccnc3)cnn2-c2ccccc2)cc1,,MIC50,,,ATCC 35828 (pyrazinamide-resistant),,≥100 µM
Cc1c(N2CCc3ccccc3C2C(=O)NC(C)(C)C)c([N+](=O)[O-])cc2c(=O)c(C(=O)O)cn(C(C)(C)C)c12,,MIC,,,H37Rv,,23.38 µM
CC1(C)C2CC3OB(C[C@@H](Cc4ccccc4)NC(=O)[C@@H](N)Cc4ccccc4)O[C@]3(C)C1C2,,MIC,,,H37Rv,,≤50 µg/mL
CO[C@H]1/C=C/O[C@@]2(C)Oc3c(C)c(O)c4c(O)c(c(/C=N/N5CCN(C)CC5)c(O)c4c3C2=O)NC(=O)/C(C)=C\C=C\[C@H](C)[C@H](O)[C@@H](C)[C@@H](O)[C@@H](C)[C@H](OC(C)=O)[C@@H]1C,,MIC,,,9135,,≥2 µg/mL
O=c1[nH]nc(-c2ccccc2)c(-c2ccccc2)c1-n1nc(-c2ccccc2)c2ccccc2c1=O,BACTEC,inhibition,,,H37Rv,12.5 µg/mL,0%
c1ccc(-c2c(C(c3ccccc3)n3ccnc3)cnn2-c2ccccc2)cc1,,MIC90,,,ATCC 27294,,>100 µM
COc1ccc(NC(=O)/C(CC2=Nc3ccc([N+](=O)[O-])cc3NC2O)=N/NC(=O)C[N+](C)(C)C)c(OC)c1.[Cl-],BACTEC,inhibition,,,H37Rv,12.5 µg/mL,20%
Cc1cn2c(C(=O)NCc3ccc(N4CCOCC4)c(F)c3)c(C)nc2s1,resazurin / fluorescence,MIC,,,H37Rv,,0.227 µM
COc1cccc(CSc2nc3ccccc3[nH]2)c1,,MIC,,,My 331/88,,250 µM
CN[C@@H]1[C@H](O[C@H]2[C@H](O[C@H]3[C@H](O)[C@@H](O)[C@H](N=C(N)N)[C@@H](O)[C@@H]3N=C(N)N)O[C@@H](C)[C@]2(O)C=O)O[C@@H](CO)[C@H](O)[C@H]1O,,MIC50,,,ATCC 35828 (pyrazinamide-resistant),,0.1 µM
Cc1cn2c(C(=O)NCc3ccc(C(F)(F)F)cc3)c(C)nc2s1,resazurin / fluorescence,MIC,,K14b00DS,H37Rv,,0.25 µM
Clc1cccc(CSc2nc3ccccc3[nH]2)c1,,MIC,,,My 331/88,,>250 µM
CO[C@@]12[C@H](COC(N)=O)C3=C(C(=O)C(C)=C(N)C3=O)N1C[C@H]1[C@@H]2N1C(=O)/C=C/c1ccccc1,,MIC,,,CS-R,,<0.1 µg/mL
COc1cc2ccc(Br)cc2cc1[C@@H](c1ccc(Cl)cc1)[C@@](O)(CCN(C)C)c1ccccc1,resazurin,MIC,,,Clinical isolate,,0.091 µg/mL
CCCCCCCC/C=C/CCCCCC1CCCC(C)N1,,MIC,,,TAC-R,,6.3 µg/mL
O=c1ccc2c(-c3ccccc3)cc(N(CCO)CCO)nc2[nH]1,,EC50,,,H37Rv,,>12.5 µg/mL
CC(C)(C)O/N=C/c1cc(NC(=S)c2ccsc2)ccc1Cl,BACTEC,MIC bound,,,H37Rv,,≤12.5 µg/mL
Fc1ccccc1-n1ncc(C(c2ccccc2)n2ccnc2)c1-c1ccccc1,,MIC50,,,ATCC 27294,,47 µM
CCn1cc(C(=O)O)c(=O)c2cc(F)c(N3CCN(C/C(=N/O)c4ccc(Br)cc4)CC3)nc21,,EC50,,,H37Rv,,>6.25 µg/mL
c1ccc(-c2cc(N3CCNCC3)nc3nc(N4CCNCC4)ccc23)cc1,,EC50,,,H37Rv,,>12.5 µg/mL
Cc1c(N2COCC2(C)C)c([N+](=O)[O-])cc2c(=O)c(C(=O)O)cn(-c3ccc(F)cc3F)c12,,MIC,,,H37Rv,,6.81 µM
CC(C)C(=O)Cc1cnccn1,BACTEC,MIC bound,,,H37Rv,,>12.5 µg/mL
CCCCCCCCCCCCCCCCNCc1ccc(O)c(OC)c1,,MIC,,,H37Ra,,>25 µg/mL
Cl.Cl.Cl.c1ccc(-c2cc(N3CCNCC3)nc3ncccc23)cc1,,inhibition,,,H37Rv,12.5 µg/mL,0%
COc1cc2ccc(Br)cc2cc1[C@@H](c1ccccc1)[C@@](O)(CCN(C)C)c1ccc(Br)cc1,resazurin,MIC,,,Clinical isolate,,0.331 µg/mL
Cn1c(=O)c2c(nc3n2CC(CF)O3)n(C)c1=O,resazurin,inhibition,,,H37Rv,6.25 µg/mL,-4%
O=[N+]([O-])c1ccc(CSc2nc3ccccc3[nH]2)c([N+](=O)[O-])c1,,MIC,,,My 331/88,,4 µM
C[C@H](CB1OC2CC3CC(C3(C)C)[C@@]2(C)O1)NC(=O)[C@@H](N)CCCCN,,MIC,,,H37Rv,,≤500 µg/mL
Cc1ccc(/C(O)=C/c2nc3c(nc2NC24CC5CC(CC(C5)C2)C4)c(=O)oc2ccccc23)cc1,BACTEC,inhibition,,,H37Rv,12.5 µg/mL,-4%
CC1(C)C2CC3OB(C[C@@H](Cc4ccccc4)NC(=O)[C@@H](N)CCCN=C(N)N)O[C@]3(C)C1C2,agar,MIC,,,H37Rv,,≤50 µg/mL
Nc1c(Cl)cnn2nnnc12,BACTEC,MIC bound,,,H37Rv,,>12.5 µg/mL
Cc1c(N2CCSCC2)c([N+](=O)[O-])cc2c(=O)c(C(=O)O)cn(-c3ccc(F)cc3F)c12,,MIC,,,H37Rv,,13.54 µM
Cc1c([C@H](C)[C@@H]2NC[C@@H](C)C[C@H]2O)ccc2c1C[C@H]1[C@H]2CC=C2C[C@@H](O)CC[C@@]21C,BACTEC,MIC bound,,,H37Rv,,≤128 µg/mL
COc1cc(CNC2CC2)ccc1O,,MIC,,,Sensitive strains,,12.5 µg/mL
C=C(C)C1CCC2(COS(=O)(=O)c3ccc(C)cc3)CCC3(C)C(CCC4C5(C)CCC(OC6CCCCO6)C(C)(C)C5CCC43C)C12,BACTEC,inhibition,,,H37Rv,12.5 µg/mL,0%
NNC(=O)CNc1ccc2ccccc2c1,,EC50,,,Drug-resistant,,0.5 µg/mL
O=C(N/N=C/c1ccc(Cl)cc1)C(c1ccccc1)N1CCCCC1,BACTEC,inhibition,,,H37Rv,12.5 µg/mL,20%
Cc1cn2c(C(=O)NCc3ccccc3C(F)(F)F)c(C)nc2s1,luminescence,MIC,,,H37Rv,,>100 µM
O=C1C2C3C=CC(O3)C2C(=O)N1Cc1ccncc1,BACTEC,inhibition,,,H37Rv,12.5 µg/mL,6%
CCOC(=O)N1CCN(c2cc(-c3ccccc3)c3ccc(=O)[nH]c3n2)CC1,,inhibition,,,H37Rv,12.5 µg/mL,12%

Repeating the final 7 entries:

COc1cc(CNC2CC2)ccc1O ; measure: MIC ; strain: Sensitive strains ; value: 12.5 µg/mL
C=C(C)C1CCC2(COS(=O)(=O)c3ccc(C)cc3)CCC3(C)C(CCC4C5(C)CCC(OC6CCCCO6)C(C)(C)C5CCC43C)C12 ; method: BACTEC ; measure: inhibition ; strain: H37Rv ; dose: 12.5 µg/mL ; value: 0%
NNC(=O)CNc1ccc2ccccc2c1 ; measure: EC50 ; strain: Drug-resistant ; value: 0.5 µg/mL
O=C(N/N=C/c1ccc(Cl)cc1)C(c1ccccc1)N1CCCCC1 ; method: BACTEC ; measure: inhibition ; strain: H37Rv ; dose: 12.5 µg/mL ; value: 20%
Cc1cn2c(C(=O)NCc3ccccc3C(F)(F)F)c(C)nc2s1 ; method: luminescence ; measure: MIC ; strain: H37Rv ; value: >100 µM
O=C1C2C3C=CC(O3)C2C(=O)N1Cc1ccncc1 ; method: BACTEC ; measure: inhibition ; strain: H37Rv ; dose: 12.5 µg/mL ; value: 6%
CCOC(=O)N1CCN(c2cc(-c3ccccc3)c3ccc(=O)[nH]c3n2)CC1 ; measure: inhibition ; strain: H37Rv ; dose: 12.5 µg/mL ; value: 12%